Experimental data published in paper PMC6817905, “Inhibition of translation termination by small molecules targeting ribosomal release factors” (Scientific Reports, 2019).
In brackets after ≈: the same amount, converted by molar mass.

Assays:
[1] = test system: Staphylococcus aureus strain ATCC29213; test: MIC on bacterial growth, wt S. aureus (broth micro-dilution); assay type: cell-based; conditions: for MIC S. aureus wt: broth micro-dilution; for MIC S. aureus: initial screen, wt S. aureus ATCC29213
wt S. aureus = test: Time-kill assay, wt S. aureus; assay type: cell-based, Staphylococcus aureus; conditions: 1x or 2x MIC, cell number decreased during first four hours, regrowth after about eight hours
Experimental: To determine if the compounds are bacteriostatic or bactericidal, time-kill assays were performed with wt S. aureus and a ΔtolC efflux-defective E. coli. The initial inoculums were diluted from triplicate biological replicates of overnight cell cultures inoculated with one colony in 1 ml MH II medium. The cell inoculum was diluted 1:1000 in 1 ml MH II medium and the cell culture was allowed to recover for 30 minutes before the compounds were added at a final concentration of 1x MIC (250 mg l^−1 for compound 115 and 125 mg l^−1 for compound 161 for both bacterial strains) or 2x MIC. As a control of the possible effect of DMSO on cell growth, the positive growth controls (three biological replicates) contained the same DMSO concentration as the cells with compound added (2x MIC). Samples (20 µl) were withdrawn before the compound was added and also after 1, 2, 4, 8 and 24 h after addition. The cells were diluted in 0.9% NaCl before they were plated on non-selective agar plates using glass beads. Colonies were counted after approximately 20 h.

| SMILES | MIC S. aureus wt [1] | MIC S. aureus [1] | Bacteriostatic or bactericidal, time-kill (wt S. aureus) |
| --- | --- | --- | --- |
| CC1CCN(Cc2csc(NC(=O)CNC(=O)c3ccc(Cl)c(Cl)c3)n2)CC1 | 250 µg/mL (≈ 566 µM) | 250 µg/mL (≈ 566 µM) | bactericidal |
| CC1CC(C)CN(Cc2csc(NC(=O)CNC(=O)c3ccc(C(C)(C)C)cc3)n2)C1 (stereo not drawn) | 125 µg/mL (≈ 282 µM) | 125 µg/mL (≈ 282 µM) | bactericidal |
